# Laboratory results published in paper PMC12395586.
# Tags and fusion partners may be left off the protein sequences shown.
# How the values were obtained:
# [1] = molecular target: T1, OxyR-His (Pseudomonas aeruginosa MPAO1) (UniProt Q9HTL4); assay: EMSA; conditions: 0-50 pmol OxyR, 0.1 pmol probe in 20 ul, poly(dI-dC), 10 mM HEPES pH 7.3, 20 mM KCl, 5% glycerol, 5 mM MgCl2, NP-40, poly(dI-dC), 25 C, 1 h, 6% gel, recombinant protein, residues 1-310, protein details: C-terminal His6, label: biotin 3' end, probe letters rebuilt from the primers and the genome
# T1 sequence (looked up): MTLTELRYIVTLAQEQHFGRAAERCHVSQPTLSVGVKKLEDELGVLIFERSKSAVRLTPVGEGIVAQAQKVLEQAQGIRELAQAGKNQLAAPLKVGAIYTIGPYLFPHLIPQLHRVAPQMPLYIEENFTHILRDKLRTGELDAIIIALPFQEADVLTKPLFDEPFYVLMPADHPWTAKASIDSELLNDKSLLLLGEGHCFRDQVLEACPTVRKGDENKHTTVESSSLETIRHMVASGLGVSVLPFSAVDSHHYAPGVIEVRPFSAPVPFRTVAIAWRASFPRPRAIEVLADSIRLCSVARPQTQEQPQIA
# [2] = molecular target: T1, OxyR-His (Pseudomonas aeruginosa MPAO1); assay: competition with a labelled probe; conditions: unlabeled 0-30 pmol against 0.1 pmol labeled N1, 50 pmol OxyR; 10 mM HEPES pH 7.3, 20 mM KCl, 5% glycerol, 5 mM MgCl2, NP-40, poly(dI-dC); 20 ul; 25 C, 1 h; 6% gel; recombinant protein; residues 1-310; protein details: C-terminal His6; probe letters rebuilt from the primers and the genome
Sequence,binding result [1],binding result [2]
GGCGATGGAACCGCTTGCAATCCATAATGCGTAATTAGGGAAAATTTTTACTAGGACGTCGATTTCTTCCGTGCTCACGCGAATCGCGCCTTTGCTGACGCTTTTCCATCTCTCGTAATCGCCCCCGTGAAGGCTGACCTTTTTGGGGCCGATTTTCTTGATTAATAGTCTTGCTCTATCGGCTGACGTGCTCATATAGAAATTTATTCCGGGGAAATAGTTGCCCTGACGTGGCTTTGGGGAAATAATTTCTCCAGGGTAATTATTTCTCTAGCTGCGTATGGCTAATGCCACGAATAGTGACGGAATGAGC (double strand) [xisF4 promoter probe (313 bp)],binds,–
GGCGATGGAACCGCTTGCAATCCATAATGCGTAATTAGGGAAAATTTTTACTAGGACGTCGATTTCTTCCGTGCTCACGCGAATCGCGCCTTTGCTGACGCTTTTCCATCTCTCGTAATCGCCCCCGTGAAGGCTGACCTTTTTGGGGCCGATTTTCTTGATTAATAGTCTTGCTCTATCGGCTGACGTGCTCATATAGAAATTTATTCCGGGGAAATAGTTGCCCTGACGTGGCTTTGGGGAAATAATTTCTCCAGGGTAATTATTTCTCTAGCTGCGTATGGCTAATGCCACGAATAGTGACGGAATGAGC (double strand) [xisF4 promoter unlabeled competitor],–,binds
